The record followed here is patent US20230287087A1 (MAX PLANCK GESELLSCHAFT ZUR F RDERUNG DER WISSENSCHAFTEN E V, published 2023).

Changes are numbered by the printed parent chain.

First the molecules themselves.
B1: Re8A03 (VHH)
VHH: QVQLVESGGGLVQPGGSLRLSCAASGRITGFNGMGWYRQTPGKQRELVASITNGGITKYADSVKGRFTISRDNAKNTVYLQMNSLKPEDTAVYLCYFWRPEFPNLYWGQGTQVTVSS
B2: Re8E12 (VHH)
VHH: QVQLVESGGGSVQPGGSLRLSCKVSGFTSDVDLRNYLVSWNRQAPGKERELVAAITPTVISGGNTNYADSVKGRFTISRDYSKSTVYLQMNSLNPEDTAVYYCKVGVYWGQGTQVTVSS
B3: Re8F03 (VHH)
VHH: B2 VHH with S11L, R19T, F27L, D30Y, N41Y, A44G, V59A, S61T, N64S, Y102S
B4: Re9G05 (VHH)
VHH: QVQLVESGGGLVQPGGSLRLSCAVSGNISSITAWDWHRQAPGKQRELVAHITSRGDTMYLDSVKGRFAISRDHAKNTLSLQMNSLKPEDTAVYYCYLRTFGPPYDYWGQGTQVTVSS
B5: Re5D06R28D (VHH)
VHH: QVQLVESGGGLVQPGGSLRLSCAISGSTLDYYAMGWFREAPGKEREGVARWRNNDGSTNYADSVKGRFTMSRDNAKDTYYLQMNSLEPEDTADYYCAYGPLTKYGDEWHWPYEYDYWGQGTQVTVSS
B6: Re11G09 (VHH)
VHH: QVQLVESGGGLVHTGGSLRLSCAASGSIFNIYRMAWYRQAPGKQREKVAIITTYGLTDYADSVKGRFTISRDNAKNTTYLQMNSLKPDDTAVYYCNTDPPDLGPGYWGQGTQVTVSS
B7: Re7D05 (VHH)
VHH: QVQLVESGGGLVQAGGSLRLSCAASGRTFSSYAMGWFRQAPGKEREFVATISWSGGSTSYADSVKGRFTISRDNAKNTVYLQMNSLKPEDTAVYYCNAVTHHSDQDGGMDYWGKGTLVTVSS
B8: Re11F07 (VHH)
VHH: QVQLVESGGGLVQAGGSLRLSCAASGRAFSSGTMGWFRQAPGKEREFVATISWSGGSTSYARSVKGRFTISGDNAENTVYLQMNSLKPEDTAVYYCYAVSSGSDYDGGMDYWGKGTLVTVSS
B9: Re5C01 (VHH)
VHH: QVQLVESGGGLVQAGGSLRLSCGVSGRTFSSYAMGWFRQAPGKEREFVATISWSGGTTNYAHSVKGRFTISRDNAKNTVYLQMNSLKVEDTAVYYCYAVSSGSDYDGGMDYWGKGTQVTVSS
B10: Re9G12 (VHH)
VHH: QVQLVESGGGLVQAGGSLRLSCAASGRTFSSYVMGWFRQAPGKEREFVAHISWSGDSTYYADSVKGRFTIFRDNAKNTAYLQMNSLKPEDTAVYYCAADRGASYYYTWASEYNYWGQGTQVTVSS
B11: Re8A06 (VHH)
VHH: QVQLVESGGGLVQAGGSLRLSCAASGSIFSINAMGWYRQAPGKERELVAAMGSSGWINYADSVKGRLTISRDNAKNTLYLQMNSLKPEDTAVYYCRGTGGVGPTSADYWGQGTQVTVSS
B12: Re9C07 (VHH)
VHH: QVQLVESGGGLVQAGGSLRLSCAASGRTFSRYAMGWFRQAPGKEREFVAAITWNADTTYYADSVKGRFTISRDNAKNTVYLQMNSLKPEDTAVYYCAAGGNHYYSRSYYSSLEYDHWGQGTQVTVSS
B13: Re11E11 (VHH)
VHH: QVQLVESGGGSVEAGGSLRLSCAASGRTFNNYNIVWFRQAPGKEREFVAAINWNGGSTSYANSVKGRFAVSRDNAKNTVYLQMNNLKHEDTAEYLCYTVGPEGDYWGQGTQVTVSS
B14: Re6D09 (VHH)
VHH: B13 VHH with I34M, N62A, R72I, V79L
B15: Re5C08 (VHH)
VHH: B13 VHH with N31D, I34M, N52K, S57N, N62D
B16: Re11C10 (VHH)
VHH: B13 VHH with F29L, N30D, I34A, G56S, S57N, A61G
B17: Re7A01 (VHH)
VHH: QVQLVESGGGLVQAGGSLRLSCAASGRTFSSYAMGWFRQAPGKEREFVATISFSGSTSYAGHVKGRFTISRDNAKNTVYLQMNSLKPEDTAVYYCHAVTRASDQDGGMDYWGQGTQVTVSS
B18: Re22D04 (VHH)
VHH: QVQLVESGGGLVQTGGSLRLSCAASGRTFSDDAMGWFRQAPGKERDVVAALGWAGVSTYYADSVKGRFGISRDNAKNTVYLQMSSLKPEDTAVYYCAAAPSVAHARLGEWAYWGKGTQVTVSS

The target of this test is SARS-CoV-2 spike protein (transiently expressed in transfected HeLa cells) (SARS-CoV-2, UniProt P0DTC2 14-1273). In words: IF, spike-transfected HeLa cells.
On to B1, for which the binding result was “binds”.

B2: the binding result is reported as “binds”.

As for B3, the binding result was “binds”.

Take B4: the binding result is reported as “binds”.

Regarding B5, the binding result was “binds”.

As to B6, the binding result is reported as “binds”.

As for B7, the binding result is listed as “binds”.

B8: the binding result is reported as “binds”.

As for B9, the binding result is “binds”.

For B10, the binding result was “binds”.

With B11, the binding result is listed as “binds”.

Take B12: the binding result is listed as “binds”.

Take B13: the binding result is on record as “binds”.

As for B14, the binding result is listed as “binds”.

For the molecule B15, the binding result was “binds”.

For the molecule B16, the binding result was “binds”.

As for B17, the binding result is “binds”.

On to B18, for which the binding result is listed as “binds”.
